# Results deposited as PubChem BioAssay AID624099 (ICCB-Longwood, 2012).
# Purpose: 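Human genes that papillomavirus E2 requires to repress the HPV18 LCR promoter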 (primary screen)
# System: human C33A cervical carcinoma cells (HPV-negative) stably expressing BPV1 E2 and an HPV18 LCR luciferase reporter
# Knock-down reagent: siRNA pool against human genes, 40 nM
# Timing: 72 h
# Read-out: 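HPV18 LCR reporter light per well, converted to plate-wise z-scores that exclude control wells, and averaged over triplicate plates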
# Reading the numbers: mean z-score and z-score: higher = stronger reporter signal, weaker E2 silencing
# Call rule: 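Mean z ≥ 2 together with z ≥ 2 in two or more of the three replicates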
# Shown is one part, drawn at random, of about 21,000 deposited reagents. 497 of all reagents (2.4%) were called active. 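Higher z means weaker E2 silencing; only reporter increases were scored, and knock-downs that hurt cell survival may mask genuine repressor factors.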 Unmarked entries are inactive. The numbers tell different reagents against one gene apart. No sequences are given here.
Gene,reagent,mean z-score,"z-score, replicate A","z-score, replicate B","z-score, replicate C"
FAM47A (family with sequence similarity 47 member A),1,-0.38,-0.76,0.07,-0.45
DUSP6 (dual specificity phosphatase 6),1,2.46 (active),3.17,2.08,2.12
XRCC1 (X-ray repair cross complementing 1),1,-0.26,-0.07,-0.41,-0.3
ASCL1 (achaete-scute family bHLH transcription factor 1),1,0.85,0.9,1.48,0.16
RANGAP1 (Ran GTPase activating protein 1),1,-0.46,-0.66,-0.5,-0.23
TMEM252 (transmembrane protein 252),1,0.54,1.28,0.46,-0.12
IKZF2 (IKAROS family zinc finger 2),1,0.09,0,-0.18,0.43
GFRA4 (GDNF family receptor alpha 4),1,0.31,0.32,0.34,0.27
ZBTB40 (zinc finger and BTB domain containing 40),1,-0.15,-0.28,-0.21,0.03
ASB18 (ankyrin repeat and SOCS box containing 18),1,-0.22,0.3,-0.59,-0.36
APOLTP (apolipoprotein lipid transfer particle homolog),1,0.46,0.38,0.43,0.57
LAG3 (lymphocyte activating 3),1,1.11,1.25,0.87,1.2
"ADH4 (alcohol dehydrogenase 4 (class II), pi polypeptide)",1,-1.03,-1.19,-1.04,-0.88
ITLN2 (intelectin 2),1,1.16,1.09,0.57,1.81
SLC39A1,1,-0.79,-0.79,-0.44,-1.14
CHRNA1 (cholinergic receptor nicotinic alpha 1 subunit),1,-0.01,0.27,-0.02,-0.28
CALML5 (calmodulin like 5),1,-0.33,-0.4,-0.25,-0.33
OCRL (OCRL inositol polyphosphate-5-phosphatase),1,-1,-0.73,-1.18,-1.1
"MN1 (MN1 proto-oncogene, transcriptional regulator)",1,0,-0.1,0.04,0.07
ADAMTS13 (ADAM metallopeptidase with thrombospondin type 1 motif 13),1,0.41,0.3,0.62,0.32
TMEFF1,1,-0.18,-0.22,-0.15,-0.16
CTSG (cathepsin G),1,0.24,0,0.34,0.39
GPR34 (G protein-coupled receptor 34),1,0.36,0.32,0.41,0.34
TRIM49B (tripartite motif containing 49B),1,-0.19,-0.02,-0.45,-0.1
SECISBP2L (SECIS binding protein 2 like),1,-1.11,-1.5,-0.85,-0.98
PCP2 (Purkinje cell protein 2),1,-0.49,-0.2,-0.55,-0.72
KLK8 (kallikrein related peptidase 8),1,-0.69,-0.88,-0.56,-0.63
CD48 (CD48 molecule),1,1.28,1.52,1.24,1.07
CAPS2 (calcyphosine 2),1,0.32,0.54,0.16,0.27
PCF11 (PCF11 cleavage and polyadenylation factor subunit),1,1.63,1.47,1.89,1.52
DNAJB7 (DnaJ heat shock protein family (Hsp40) member B7),1,0.16,0.02,0.41,0.05
PGM2 (phosphoglucomutase 2),1,-0.44,-0.75,-0.53,-0.05
CIAO1 (cytosolic iron-sulfur assembly component 1),1,-0.02,-0.07,0.05,-0.05
PRRC1 (proline rich coiled-coil 1),1,0.02,0.36,-0.09,-0.2
PLTP (phospholipid transfer protein),1,-0.14,-0.01,-0.08,-0.32
TOPAZ1 (testis and ovary specific TOPAZ 1),1,0.08,-0.23,0.31,0.16
OR10K2 (olfactory receptor family 10 subfamily K member 2),1,0.07,0.02,0.14,0.06
DGKI (diacylglycerol kinase iota),1,-0.41,-0.23,-0.51,-0.49
OR1L4 (olfactory receptor family 1 subfamily L member 4),1,-0.69,-1.25,-0.55,-0.27
ABCC6 (ATP binding cassette subfamily C member 6),1,-0.42,-0.49,-0.56,-0.23
CCDC74B (coiled-coil domain containing 74B),1,-0.07,0.01,0.06,-0.27
RIMS4 (regulating synaptic membrane exocytosis 4),1,1.15,1.59,0.95,0.9
TRAF7 (TNF receptor associated factor 7),1,0.02,0.4,0.05,-0.41
ILK (integrin linked kinase),1,-2.62,-2.67,-2.8,-2.4
ILK (integrin linked kinase),2,0.79,1.28,0.69,0.4
LINC00304 (long independently transcribed non-coding RNA 304),1,-2.25,-1.97,-2.31,-2.47
SLBP (stem-loop histone mRNA binding protein),1,0.33,-0.05,0.39,0.65
TRAIP (TRAF interacting protein),1,-1.01,-0.94,-1.23,-0.85
OR5T2 (olfactory receptor family 5 subfamily T member 2),1,1.16,1.28,1.01,1.18
LOC154449,1,0.43,0.23,0.61,0.46
LOC399951 (retired record),1,-0.17,-0.42,-0.49,0.39
ANKZF1 (ankyrin repeat and zinc finger peptidyl tRNA hydrolase 1),1,-0.61,-0.66,-0.58,-0.58
BPIFB3 (BPI fold containing family B member 3),1,1.24,1.13,1.03,1.56
LY6G6F (lymphocyte antigen 6 family member G6F),1,-0.07,0.18,0.12,-0.51
FAM131C (family with sequence similarity 131 member C),1,0.72,0.79,0.96,0.4
SCN3B (sodium voltage-gated channel beta subunit 3),1,-0.58,-0.37,-0.67,-0.7
WDR54 (WD repeat domain 54),1,-0.98,-1.1,-1,-0.84

9 successive records already listed, for reference:
Gene,reagent,mean z-score,"z-score, replicate A","z-score, replicate B","z-score, replicate C"
PRRC1 (proline rich coiled-coil 1),1,0.02,0.36,-0.09,-0.2
PLTP (phospholipid transfer protein),1,-0.14,-0.01,-0.08,-0.32
TOPAZ1 (testis and ovary specific TOPAZ 1),1,0.08,-0.23,0.31,0.16
OR10K2 (olfactory receptor family 10 subfamily K member 2),1,0.07,0.02,0.14,0.06
DGKI (diacylglycerol kinase iota),1,-0.41,-0.23,-0.51,-0.49
OR1L4 (olfactory receptor family 1 subfamily L member 4),1,-0.69,-1.25,-0.55,-0.27
ABCC6 (ATP binding cassette subfamily C member 6),1,-0.42,-0.49,-0.56,-0.23
CCDC74B (coiled-coil domain containing 74B),1,-0.07,0.01,0.06,-0.27
RIMS4 (regulating synaptic membrane exocytosis 4),1,1.15,1.59,0.95,0.9
